# PubChem BioAssay AID1259414 | Drosophila RNAi Screening Center, 2018
# Assay: 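Genome-wide screen for host control of endosymbiont load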 (primary screen)
# System: Drosophila JW18 cells infected with Wolbachia
# Reagent: long dsRNA against Drosophila genes, 0.25 µg dsRNA per well of a 384-well plate
# Duration: 5 days
# Treatment: cells persistently infected with Wolbachia before knock-down; no added drug
# Measured: 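Automated imaging of bacterial rRNA staining divided by host cell count, reported as plate-normalised robust z-score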
# Reading the numbers: Wolbachia per cell robust z: higher = more Wolbachia per host cell than the plate typical
# Active means: 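Hit when robust z is 1.5 or more, or -1.5 or less, in at least two of three replicates; excludes dsRNAs with several or no targets, genes not expressed in JW18 and well A1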
# The deposit covers about 24,000 reagents; below is a random part of those with a known target gene and a result. Over the whole deposit, about 1,210 (5%) were called active. 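Inactive calls also include excluded dsRNAs with several or no targets, genes unexpressed in JW18, and well A1, regardless of score.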 A number with no mark means an inactive call. Reagents against one gene are numbered here.
predicted target,reagent no.,"Wolbachia per cell robust z, rep 1","Wolbachia per cell robust z, rep 2","Wolbachia per cell robust z, rep 3"
MED18 (Mediator complex subunit 18),1,-4.2,-0.102,-0.519
fs(1)M3 (female sterile (1) M3),1,0.0433,-0.315,-0.731
fs(1)M3 (female sterile (1) M3),2,-0.919,-0.177,-0.029
CG5961,1,0.0509,-0.706,0.897
CG5961,2,1.16,0.0236,-0.00262
CG30036,1,-0.122,-0.304,-0.0439
Lcp65Ag3 (Larval cuticle protein),1,0.0643,-1.91,-0.0455
Map60 (Microtubule-associated protein 60),1,0.212,-0.709,-1.74
CG11842,1,0.243,0.584,1.8
CG11842,2,-0.0213,0.42,-1.24
CG6277,1,-1.56,0.677,-4.36
CG6277,2,0.155,-1.66,0.669

Sorted by “Wolbachia per cell robust z, rep 3” (highest first): 3 of the entries above.
predicted target,reagent no.,"Wolbachia per cell robust z, rep 1","Wolbachia per cell robust z, rep 2","Wolbachia per cell robust z, rep 3"
CG11842,1,0.243,0.584,1.8
CG11842,2,-0.0213,0.42,-1.24
CG6277,1,-1.56,0.677,-4.36

The listing continues:
predicted target,reagent no.,"Wolbachia per cell robust z, rep 1","Wolbachia per cell robust z, rep 2","Wolbachia per cell robust z, rep 3"
Hmu (Hemomucin),1,-0.557,-0.087,-2.2
Hmu (Hemomucin),2,-0.836,0.472,0.221
CG30429,1,1.06,0.0167,0.273
CG5565,1,-4.57,-0.055,-0.364
CG5565,2,-0.36,-1.29,0.218
dgo (diego),1,-0.286,-0.886,-4.29
dgo (diego),2,0.518,1.4,1.35
CG14275,1,-0.2,0.724,-0.0851
CG14275,2,0.939,-0.262,-0.926
CG33658,1,-2.31,-2.88,-2.67
Drsl4 (Drosomycin-like 4),1,0.0265,-1.52,-0.294
Drsl4 (Drosomycin-like 4),2,0.0909,-1.43,-0.587
CG42682,1,-2.51,0.391,-0.224
CG14312,1,-2,-1.6,0.265
Mics1 (Mitochondrial morphology and cristae structure 1),1,0.673,0.513,-1.08
Kap3 (Kinesin associated protein 3),1,0.554,-0.156,-1.09
Kap3 (Kinesin associated protein 3),2,-1.48,0.566,-0.911
